Test results reported in patent US10278869B2, “Apparatus for aspirating, irrigating and cleansing wounds” (SMITH & NEPHEW PLC, priority 2002, dated 2019).

Tested on: Staphylococcus epidermidis
Test: Infusion of antibiotic from dialysate circuit to wound circuit, quantitative zone of inhibition assay
Settings: over 230 min; 400 KD MWCO hollow fibre dialysis unit

With gentamycin sulphate the “gentamycin levels in the dialysate circuit” value was “steady decrease” and the “level of gentamycin in the wound circuit” value was “increases steadily over 230 min”.
